Assays:
Assay in all cases: ELISA
Conditions in all cases: for response (relative OD value): read off a plot
[1] = biological target: PRRSV G9 epitope peptide (…)
[2] = biological target: PRRSV GP4-5 epitope peptide (…)
[3] = biological target: PRRSV N-15 epitope peptide (…)
[4] = biological target: PRRSV N-6 epitope peptide (…)

## SLA-1*04:01:01-β2m single-chain protein (extracellular part of SLA-1*04:01:01, (G4S)3 linker, mature β2m, His-tag) (from UniProt Q07717) D151N; E152V
[1]; parent: 27.78
  other: Relative level (% of SLA-1*13:01 binding): 57.8%
[1]; parent: est. 1.2
  response (relative OD value): 2.5
[2]; parent: 25.59
  other: Relative level (% of SLA-1*13:01 binding): 103%
[2]; parent: est. 1.1
  response (relative OD value): 4.6
[3]; parent: 39.02
  other: Relative level (% of SLA-1*13:01 binding): 84%
[3]; parent: est. 1.1
  response (relative OD value): 2.3
[4]; parent: 23.03
  other: Relative level (% of SLA-1*13:01 binding): 78.6%
[4]; parent: est. 1.1
  response (relative OD value): 3.6

## SLA-1*13:01-β2m single-chain protein (from UniProt Q07717) N151D; V152E
[1]; parent: 100
  percent of parent: 16.9%
[1]; parent: est. 4.3
  response (relative OD value): 0.72
[2]; parent: 100
  percent of parent: 23.9%
[2]; parent: est. 4.5
  response (relative OD value): 1.1
[3]; parent: 100
  percent of parent: 39.9%
[3]; parent: est. 2.7
  response (relative OD value): 1.1
[4]; parent: 100
  percent of parent: 16.8%
[4]; parent: est. 4.6
  response (relative OD value): 0.78

From PMC5741678, “Specificity Characterization of SLA Class I Molecules Binding to Swine-Origin Viral Cytotoxic T Lymphocyte Epitope Peptides in Vitro” (2017)
